Anti-infective test results gathered from many reports (values: NIAID ChemDB through PubChem).

Common to all: tests on isolated targets; organism: Hepatitis C virus; target: NS3 protease

Rows are shuffled and stem from different studies.

SMILES,endpoint,result
CSCC[C@H](NC(=O)CCC(=O)O)C(=O)N[C@@H](CCC(=O)O)C(=O)N[C@@H](CCC(=O)O)C(=O)N[C@@H](CS)C(=O)O,IC50,77 µM
CCCC(=O)c1cc2c(c(O)c1C)C(=O)C(=O)c1c(O)cccc1-2,IC50,7.7 µM
CCC[C@H](NC(=O)[C@H](Cc1ccc2ccccc2c1)NC(=O)[C@H](CCC(=O)O)NC(=O)[C@@H](NC(=O)CCC(=O)O)C1CCCCC1)C(=O)NS(=O)(=O)c1ccccc1,Ki,8.4 µM
CC[C@H](C)[C@H](NC(=O)[C@H](CC(C)C)NC(=O)[C@@H](CC(C(=O)O)C(=O)O)NC(=O)[C@H](CC(=O)O)NC(C)=O)C(=O)N[C@@H](CC1CCCCC1)C(=O)N[C@@H](CS)C(=O)O,IC50,0.0015 µM
CC(=O)OCCC/C(=C1/SC(=S)N(CC(=O)O)C1=O)c1ccc(Br)cc1,IC50,2.3 µg/mL
N[C@@H](CC(=O)O)C(=O)N[C@@H](CCC(=O)O)C(=O)N[C@@H](Cc1ccccc1)C(=O)N[C@@H](CCC(=O)O)C(=O)N[C@@H](CC1CCCCC1)C(=O)N[C@@H](CS)C(=O)O,IC50,0.42 µM
CCOP(=O)(OCC)[C@H](CC)NC(=O)[C@@H]1C[C@@H](OCc2ccccc2)CN1C(=O)[C@@H](NC(=O)[C@@H](NC(=O)c1cnccn1)C(C)C)C(C)C,Ki,>100 µM
C/C(=C1/SC(=S)N(CC(=O)O)C1=O)c1ccc2c(ccc3ccccc32)c1,IC50,17 µM
CC[C@H](NC(=O)[C@H](CC(C)C)NC(=O)[C@@H](NC(=O)[C@@H](NC(=O)[C@H](CC(=O)O)CC(=O)[C@H](CCC(=O)O)NC(C)=O)C(C)C)C(C)C)C(=O)C(=O)NCc1ccccc1OC,Ki,<1 µM
CC(C)C[C@H](NC(=O)C1(CC2CCC2)Cc2ccccc2N1)C(=O)N[C@@H](CC(F)F)C(=O)C(=O)O,IC50,>100 µM
CCCC(=O)c1cc2c(c(O)c1C)C(=O)C(=O)c1c(O)cccc1-2,IC50,2.5 µg/mL
CC(C)C[C@H](NC(=O)[C@@H](CCC(=O)O)NC(=O)[C@@H](N)CC(=O)O)C(=O)N[C@@H](CCC(=O)O)C(=O)N[C@@H](CC1CCCCC1)C(=O)N[C@@H](CS)C(=O)O,IC50,0.045 µM
CCC[C@H](NC(=O)C1CC(Oc2cc(-c3ccccc3)nc3cc(OC)ccc23)CN1C(=O)[C@@H](NC(=O)OC(C)(C)C)C(C)C)C(=O)CS(=O)(=O)c1ccccc1,Ki,2.7 µM
CC(C)C[C@H](NC(=O)C1Cc2ccc(OCC(=O)O)cc2N1)C(=O)N[C@@H](CC(F)F)C(=O)C(=O)O,IC50,>100 µM
CC[C@H](C)[C@H](NC(=O)[C@@H](NC(=O)[C@H](CCC(=O)O)NC(=O)[C@@H](N)CC(=O)O)C(c1ccccc1)c1ccccc1)C(=O)N[C@@H](CC1CCCCC1)C(=O)N[C@@H](CS)C(=O)O,IC50,0.06 µM
CC(=O)N[C@H](C(=O)N[C@H](C(=O)N1C[C@H](OCc2cccc3ccccc23)C[C@H]1C(=O)NC1(C(=O)O)CC1)C(C)C)C1CCCCC1,IC50,7.4 µM
CCC[C@H](NC(=O)[C@H](CC1CCCCC1)NC(=O)[C@@H](NC(=O)[C@@H](NC(=O)CCC(=O)O)C1CCCCC1)C(C)CC)C(=O)O,Ki,28 µM
C=CCC(NC(=O)[C@H](CC(C)C)NC(=O)[C@@H](NC(=O)[C@H](Cc1ccccc1C)NC(=O)[C@H](CCC(=O)O)NC(=O)[C@H](CC(=O)O)NC(=O)CCC(=O)O)C(C)(C)C)B(O)O,IC50,0.034 µM
CC[C@@H](C=O)NC(=O)[C@@H]1C[C@@H](NC(=O)C2CCCCC2)CN1C(=O)[C@@H](NC(=O)[C@@H](NC(=O)c1cnccn1)C(C)C)C(C)C,Ki,>100 µM
C=C[C@H]1CC1(NC(=O)[C@@H]1C[C@@H](Oc2cc(-c3ccccc3)nc3cc(OC)ccc23)CN1C(=O)[C@@H](NC(=O)OC(C)(C)C)C(C)C)C(=O)O,Ki,0.055 µM
CSCC[C@H](N)C(=O)N[C@@H](CCC(=O)O)C(=O)N[C@@H](CCC(=O)O)C(=O)N[C@@H](CS)C(=O)O,IC50,150 µM
CCC[C@H](NC(=O)[C@H](Cc1ccc2ccccc2c1)NC(=O)[C@H](CCC(=O)O)NC(=O)[C@@H](NC(=O)CCC(=O)O)C1CCCCC1)C(=O)O,Ki,46 µM
CC[C@@H](C=O)NC(=O)[C@H](CC(C)C)NC(=O)[C@@H](NC(=O)[C@@H](NC(=O)CCN1CCCCC1)C(C)C)C(C)C,Ki,1–100 µM
CCCCCCCCCCCCCCCCC/C(=C1\SC(=S)N(CC(=O)O)C1=O)c1ccccc1,IC50,8.35 µM
CCC[C@H](NC(=O)C1CC(Oc2cc(-c3ccccc3)nc3cc(OC)ccc23)CN1C(=O)[C@@H](NC(=O)OC(C)(C)C)C(C)C)C(=O)O,Ki,0.76 µM
CC[C@@H](C=O)NC(=O)[C@@H]1C[C@@H](OCc2ccccc2)CN1C(=O)[C@@H](NC(=O)c1c(C)cccc1C)C(C)C,Ki,>100 µM

2 of the rows above, restated:

SMILES,endpoint,result
C=C[C@H]1CC1(NC(=O)[C@@H]1C[C@@H](Oc2cc(-c3ccccc3)nc3cc(OC)ccc23)CN1C(=O)[C@@H](NC(=O)OC(C)(C)C)C(C)C)C(=O)O,Ki,0.055 µM
CCC[C@H](NC(=O)[C@H](CC1CCCCC1)NC(=O)[C@@H](NC(=O)[C@@H](NC(=O)CCC(=O)O)C1CCCCC1)C(C)CC)C(=O)O,Ki,28 µM

a–b is a range or a potency band. ICn: concentration for n% inhibition.